Test results taken from article PMC9959676 (Molecules, 2023).

Experiment: DPPH free radical scavenging assay
Details: mean absorbance at 517 nm, triplicate; 1.0 mL sample 0.5 mg/mL + 2 mL DPPH 0.2 mg/mL, 30 min
Procedure: The DPPH assay was carried out to estimate the antioxidant potential among all the compounds [29]. Then, 2 mL (0.2 mg/mL in methyl alcohol) of DPPH was mixed with 1.0 mL (0.5 mg/mL in methyl alcohol) of the sample solution in a test tube. All the reaction tubes were covered with aluminum foil and kept aside for 30 min to complete the reaction. The activity was carried out in a dark room. […] A UV-visible spectrophotometer was employed to observe a reduction in the concentration of free radicals at 517 nm. The absorbance of the control (1.0 mL methanol + 2 mL DPPH solution) was also measured. All samples were evaluated in a triplicate manner, and the mean results were recorded. The standard antioxidant (ascorbic acid) was evaluated and set as a reference/standard. The percentage of inhibition (%) was calculated using the following formula in terms of scavenging activity(S):S (%) = [(Ab − Aa)/Ab] × 100(1) where Ab = Absorbance of control; and Aa = Absorbance of the test sample

CCCCC(=O)N(Cc1ccc(-c2ccccc2-c2nnn[nH]2)cc1)C(C(=O)Oc1ccc(N)cc1)C(C)C (stereo not drawn) [AV4, 4-aminophenyl 2-(N-((2′-(2H-tetrazol-5yl) -[1,1′-biphenyl]-4yl)methyl)pentanamido)-3methyl butanoate]
Mean: 0.405

CCCCC(=O)N(Cc1ccc(-c2ccccc2-c2nn[nH]n2)cc1)C(C(=O)Oc1ccccc1C(=O)O)C(C)C (stereo not drawn) [AV11, 2-((2-(N-((2′-(2H-tetrazole-5-yl)-[1,1′-biphenyl]-4yl)methyl)pentanamido)-3-methylbutanoyl)oxy) benzoic acid]
Mean: 0.112

CCCCC(=O)N(Cc1ccc(-c2ccccc2-c2nn[nH]n2)cc1)C(C(=O)Oc1ccc(CC(N)C(=O)O)cc1)C(C)C (stereo not drawn) [AV7, 3-(4-((2-(N-((2′-(2H-tetrazol-5yl)-[1,1′-biphenyl]-4 yl)methyl)pentanamido)-3methylbutanoyl)oxy)phenyl)-2amino-propanoic acid]
Mean: 0.948
